Pooled drug test results. Numbers come from NIAID ChemDB, via PubChem.

Common to all: tests on isolated targets; agent: HIV; protein: Reverse transcriptase; endpoint: IC50

ICn is the concentration giving n% inhibition. Neighbouring rows are from separate reports.

{"smiles": "NS(=O)(=O)c1ccc(CCNC(=O)Cc2cccs2)cc1", "changes": "Y181C", "read by": "nucleotide incorporation", "result": "7.4 µM"}
{"smiles": "Cc1cn([C@@H]2O[C@H](CO[Si](C)(C)C(C)(C)C)C3(OS(=O)(=O)C=C3N)[C@H]2O[Si](C)(C)C(C)(C)C)c(=O)n(C)c1=O", "changes": "RT-Y181I", "read by": "nucleotide incorporation", "result": ">750 µM"}
{"smiles": "COc1ccc2c(c1)N(C(=O)OC(C)C)[C@@H](CSC)C(=S)N2", "changes": "RT-D67N K70R T215F K219Q Y181C", "read by": "RT activity", "result": "0.027 µg/mL"}
{"smiles": "CC(C)=CCN1Cc2cccc3[nH]c(=S)n(c23)C[C@@H]1C", "changes": "RT-E138K(P66 ONLY)", "result": "0.28 µM"}
{"smiles": "Nc1nc2c(ncn2[C@H]2CC[C@@H](COP(=O)(O)OP(=O)(O)OP(=O)(O)O)O2)c(=O)[nH]1", "changes": "RT-N137A", "read by": "nucleotide incorporation / radiometric", "result": "0.2 µM"}
{"smiles": "O=C1c2ccccc2C2(c3ccccc3)SCCN12", "changes": "RT-K101A", "read by": "ELISA", "result": "55 µM"}
{"smiles": "CC(C)Nc1cccnc1N1CCN(C(=O)c2cc3ccccc3[nH]2)CC1", "changes": "RT-Y181I", "read by": "nucleotide incorporation", "result": "87 µM"}
{"smiles": "Nc1nc2c(ncn2[C@H]2CC[C@@H](COP(=O)(O)OP(=O)(O)OP(=O)(O)O)O2)c(=O)[nH]1", "changes": "RT-E138K(P66 ONLY)", "result": "0.028 µM"}
{"smiles": "Cc1c(C(C)c2c(F)cccc2F)nc(NC2CCCC2)[nH]c1=O", "changes": "Y188L", "read by": "nucleotide incorporation / radiometric", "result": "1.1 µM"}
{"smiles": "Cc1cn([C@@H]2O[C@H](CO[Si](C)(C)C(C)(C)C)C3(OS(=O)(=O)C=C3N)[C@H]2O[Si](C)(C)C(C)(C)C)c(=O)n(C)c1=O", "changes": "RT-P140A", "read by": "nucleotide incorporation / radiometric", "result": "0.6 µM"}
{"smiles": "O=c1[nH]cnc2c1ncn2[C@H]1CC[C@@H](CO)O1", "changes": "RT-K65R S68G", "read by": "RT activity", "result": "5.9 µM"}
{"smiles": "CO[P@](=O)(c1cc(C)cc(/C=C/C#N)c1)c1c(C(N)=O)[nH]c2ccc(Cl)cc12", "changes": "E138K", "result": "2.99 µM"}
{"smiles": "Cc1cc(C)cc([C@]23SCCN2C(=O)c2ccccc23)c1", "changes": "RT-Y188L", "read by": "ELISA", "result": "9.8 µM"}
{"smiles": "c1ccc(C2SCc3nc4ccccc4n32)cc1", "changes": "RT-K103N Y181I", "result": ">50 µM"}

Repeating the first 2 entries:

NS(=O)(=O)c1ccc(CCNC(=O)Cc2cccs2)cc1 ; changes: Y181C ; read by: nucleotide incorporation ; result: 7.4 µM
Cc1cn([C@@H]2O[C@H](CO[Si](C)(C)C(C)(C)C)C3(OS(=O)(=O)C=C3N)[C@H]2O[Si](C)(C)C(C)(C)C)c(=O)n(C)c1=O ; changes: RT-Y181I ; read by: nucleotide incorporation ; result: >750 µM